According to article PMC12055641, “The Study of Antistaphylococcal Potential of Omiganan and Retro-Omiganan Under Flow Conditions” (Probiotics and Antimicrobial Proteins, 2024):
No end group written: not given here.

Experiment: Peptide binding to pDa-coated PDMS channels (RP-HPLC)
Conditions: internal area of ca. 100 mm^2; RP-HPLC before and after

Substance	amount of bound peptide [µg]
ILRWPWWPWRRK-NH2 [Omiganan]	12.48 ± 0.22
KRRWPWWPWRLI-NH2 [Retro-Omiganan]	12.35 ± 0.10
